PMC9400459 (Science (New York, N.y.), 2022)

Biological target: WIV-1 receptor binding domain (Bat SARS-like coronavirus WIV1, UniProt U5WI05, strain)
Test: ELISA; mAb on sarbecovirus RBDs; EC50 of at least two independent experiments
Conditions: both partners purified

B1: S2K146 human monoclonal antibody (antibody, V domains shown)
VH: QVQLVESGGVVVQPGGSLRLSCAASGFTFHDHTMHWVRQAPGKGLEWVSLITWNGGTIHYSDSVKGRFTISRDNSKNSLYLQMNSLRTEDTALYYCAKDLGRGGWYLPSDAWGQGTLVTVSS
VL: not shown
binding result: binds
